Only a part is listed here, and it is no random draw. Active and inactive are the calls of the source.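 The calls were made as follows: active = OD600 absorbance below the run mean of sample wells minus 3.6 SD, in any replicate (cut at about 0.56 in these data); inactive = the rest.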
Test: antibacterial activity against Escherichia coli – OD600, primary screen (AID 1053175)
Details: Escherichia coli growth, OD600, 23 h; hits give low values
With `O=[N+]([O-])c1cc([N+](=O)[O-])c(-c2ccn[nH]2)s1` the OD600 absorbance was active: 0.366.
In the case of `O=C(O)c1ccccc1[As](=O)(O)O`, the OD600 absorbance is reported as active: 0.396.
For `O=c1c2cc([N+](=O)[O-])ccc2[nH]c2c([N+](=O)[O-])cc([N+](=O)[O-])cc12`, the OD600 absorbance was active: 0.449.

Reference: PubChem BioAssay AID1053175 (ICCB-Longwood Screening Facility, Harvard Medical School, 2014)
